Results of unrelated studies side by side (data: NIAID ChemDB).

All rows: whole-cell or culture tests; agent: Vaccinia virus; read-out: EC50

ECn: concentration that inhibits the pathogen or its effect by n%. Blank or dashed fields: not listed here. Lines come from different laboratories, so protocols vary. a–b is a range or a potency band.

| structure | cells | strain or isolate | result |
|---|---|---|---|
| Nc1cc(OC[C@H](CO)OCP(=O)(O)O)nc(N)n1 | - | - | 19 µM |
| Cc1cn([C@H]2C=C[C@@H](CO)O2)c(=O)[nH]c1=O | VERO | - | >446 µM |
| Nc1ncnc2c1ncn2C[C@@H](CO)OCP(=O)(O)O | HEL | Lederle | 0.17 µg/mL |
| CCCC#Cc1c(C(N)=O)ncn1[C@@H]1O[C@H](CO)[C@@H](O)[C@H]1O | PRK | - | 150 µg/mL |
| CCOC(=O)CC1OP(=O)(OC[C@H]2O[C@@H](n3cc(/C=C/Br)c(=O)[nH]c3=O)C[C@@H]2O)Oc2cccc(Cl)c21 | VERO 76 | - | >99 µg/mL |
| Nc1ncc2ncn(CCOCP(=O)(O)O)c2n1 | Primary rabbit kidney cells | - | >200 µg/mL |
| O=C(O)Cc1cc(O)ccc1O | E6SM | - | 7 µg/mL |
| Nc1nc(N)c2ncn(CCOCP(=O)(O)O)c2n1 | HFF | WR | 128 µM |
| O=c1[nH]c(=O)n([C@H]2C[C@H](O)[C@@H](CO)O2)cc1C1CCCC1 | E6SM | - | 810 µM |
| CC1OP(=O)(OC[C@H]2O[C@@H](n3cc(/C=C/Br)c(=O)[nH]c3=O)C[C@@H]2O)Oc2cccc(Cl)c21 | VERO 76 | - | >99 µg/mL |
| O[C@H]1[C@@H](O)COC(n2cnc3cc(Cl)c(Cl)cc32)[C@@H]1O | E6SM | - | >400 µg/mL |
| Nc1ccn(C[C@@H](CO)OCP(=O)(O)O)c(=O)n1 | Primary rabbit kidney cells | - | 4 µg/mL |
| Cc1cn([C@H]2C[C@@H](O)[C@H](CO)O2)c(=O)[nH]c1=O | VERO B | - | >1000 µM |
| O=c1cnn([C@@H]2O[C@H](CO)[C@@H](O)[C@H]2O)c(=O)[nH]1 | VERO 76 | - | 4.3 µM |
| Nc1ncnc2c1ncn2C[C@H](O)CO | VERO | - | 20 µg/mL |
| Nc1nccc2c1ncn2[C@@H]1C[C@H](CO)[C@@H](O)[C@H]1O | PRK | - | 2 µg/mL |
| OCCOC(CCO)n1cnc2cc(Cl)c(Cl)cc21 | E6SM | - | >100 µg/mL |
| O=c1[nH]c(=O)n([C@H]2C[C@H](O)[C@@H](CO)S2)cc1C1CCCC1 | E6SM | - | 760 µM |
| C[C@H](COc1cc(N)nc(N)n1)OCP(=O)(O)O | - | - | >720 µM |
| NC(=O)c1c[se]c([C@@H]2O[C@H](CO)[C@@H](O)[C@H]2O)n1 | HeLa | Elstree | 2 µg/mL |
| Nc1nccc2c1ncn2[C@@H]1C[C@H](CO)[C@@H](O)[C@H]1O | PRK | - | 2 µg/mL |
| CCCCOC(=O)C(C)NP(=O)(COCCn1cnc2c(NC3CC3)nc(N)nc21)NC(C)C(=O)OCCCC | HFF | WR | 0.12 µM |
| O=C1Nc2ccc(Cl)cc2[C@@](C#CC2CC2)(C(F)(F)F)O1 | HFF | - | >300 µM |
| C=CSC[C@H]1O[C@@H](n2cnc3c(N)ncnc32)[C@H](O)[C@@H]1O | VERO | - | 30 µM |
| Cn1cc(NC(=O)c2cc(NC(=O)CCCCC(=O)Nc3cc(C(=O)Nc4cc(C(=O)NCCC(N)=[NH2+])n(C)c4)n(C)c3)cn2C)cc1C(=O)NCCC(N)=[NH2+] | VERO | - | 4.5 µg/mL |
| Cc1cn([C@H]2C=C[C@@H](CO)O2)c(=O)[nH]c1=O | HFF | - | >300 µM |
| NC(=O)c1ncn([C@@H]2O[C@H](CO)[C@@H](O)[C@H]2O)n1 | VERO | - | 13.5 µg/mL |
| Nc1nccc2c1ncn2[C@@H]1C[C@H](CO)[C@@H](O)[C@H]1O | PRK | - | 0.5 µg/mL |
| O=C(O)c1cc(O)ccc1O | E6SM | - | 7 µg/mL |
| Nc1cn([C@H]2C[C@H](O)[C@@H](CO)O2)c(=O)[nH]c1=O | PRK | - | 1 µg/mL |
| Nc1ncnc2c1ncn2[C@@H]1C=C[C@@H](O)[C@H]1O | PRK | - | 0.7 µg/mL |
| Nc1nc(N)c2ncn(CC(CO)OCP(=O)(O)O)c2n1 | Primary rabbit kidney cells | - | 2 µg/mL |
| O=c1ccn(CC(CO)OCP(=O)(O)O)c(=O)[nH]1 | Primary rabbit kidney cells | - | >400 µg/mL |
| C[C@H]1C[C@@H](n2cnc3c(N)ncnc32)[C@H](O)[C@@H]1O | E6SM | - | 2 µg/mL |
| Nc1ccn(C[C@H]2COP(=O)(O)CO2)c(=O)n1 | HFF | WR | 58.8 µM |
| Nc1nccc2c1ncn2[C@@H]1C[C@H](CO)[C@@H](O)[C@H]1O | PRK | - | 0.8 µg/mL |
| NC(=O)c1ncn([C@@H]2O[C@H](CO)[C@@H](O)[C@H]2O)n1 | PRK | - | 20 µg/mL |
| Nc1cc(OCCOCP(=O)(O)O)nc(N)n1 | - | - | 570 µM |
| Nc1nc(NC2CC2)c2ncn([C@H]3C=C[C@@H](CO)C3)c2n1 | HFF | - | >300 µM |
| Nc1ncnc2c1ncn2[C@H]1[C@H](O)[C@H](O)[C@]2(CO)O[C@H]12 | PRK | - | 0.1 µg/mL |
| Nc1nc2c(ncn2[C@H]2C[C@@H](O)[C@H](CO)O2)c(=O)[nH]1 | VERO B | - | >1000 µM |
| O=[N+]([O-])c1cc(Cl)c(Cl)cc1[N+](=O)[O-] | E6SM | - | >1 µg/mL |
| Nc1nccc2c1ncn2[C@@H]1C[C@H](CO)[C@@H](O)[C@H]1O | PRK | - | 0.8 µg/mL |
| Nc1nccc2c1ncn2[C@@H]1O[C@H](CO)[C@@H](O)[C@H]1O | PRK | - | 0.3 µg/mL |
| Nc1ncnc2c1ncn2CCOCP(=O)(O)O | Primary rabbit kidney cells | - | 150 µg/mL |
| Nc1ccn(C[C@H]2COP(=O)(O)CO2)c(=O)n1 | HFF | NYC | 16 µM |
| CCCCCCCCCCCCCCCCCCOCCOP(=O)(O)CO[C@H](CO)Cn1ccc(N)nc1=O | HFF | Elstree | 0.4 µM |
| Nc1nccc2c1ncn2[C@@H]1C[C@H](CO)[C@@H](O)[C@H]1O | PRK | - | 2 µg/mL |
| O=c1[nH]c(=O)n([C@H]2C[C@H](O)[C@@H](CO)O2)cc1Cl | PRK | - | 0.2 µg/mL |
| C#Cc1c(C(N)=O)ncn1[C@@H]1O[C@H](CO)[C@@H](O)[C@H]1O | PRK | - | 0.2 µg/mL |
| O=c1ccn([C@H]2C[C@H](O)[C@@H](CO)S2)c(=O)[nH]1 | E6SM | - | 1.6 µM |
| N#CSc1cn([C@H]2C[C@H](O)[C@@H](CO)O2)c(=O)[nH]c1=O | PRK | - | 4 µg/mL |
| Nc1ccn([C@@H]2CS[C@H](CO)O2)c(=O)n1 | HFF | - | >436 µM |
| Nc1ncnc2c1ncn2[C@@H]1C=C(CO)[C@@H](O)[C@H]1O | PRK | - | 0.03 µg/mL |
| Nc1ncnc2c1ccn2[C@@H]1O[C@H](CO)[C@@H](O)[C@H]1O | PRK | - | 0.07 µg/mL |
| O=c1[nH]c(=O)n([C@H]2C[C@H](O)[C@@H](CO)O2)cc1C1CCCCC1 | E6SM | - | >1200 µM |
| Oc1cccc(O)c1O | E6SM | - | 30 µg/mL |
| O=c1[nH]cnc2c1ncn2[C@@H]1C=C(CO)[C@@H](O)[C@H]1O | PRK | - | 2 µg/mL |
| Nc1ncnc2c1ncn2[C@H]1[C@H](O)[C@H](O)[C@]2(CO)O[C@H]12 | PRK | - | 0.1 µg/mL |
| NC(=O)c1ncn([C@@H]2O[C@H](CO)[C@@H](O)[C@H]2O)n1 | PRK | - | 20 µg/mL |
| Nc1ncnc2c1ncn2[C@@H]1CC[C@@H](O)[C@H]1O | L929 | - | 0.03 µg/mL |
| Nc1nc2c(ncn2[C@@H]2O[C@@H](CO)[C@H](O)[C@H]2O)c(=O)[nH]1 | VERO B | - | >1000 µM |
| Nc1ncnc2c1ncn2CC(O)C(=O)O | PRK | - | 3–30 µg/mL |
| OCCOC([C@H](O)CO)n1cnc2cc(Cl)c(Cl)cc21 | E6SM | - | >400 µg/mL |
| C[C@H](NP1(=O)CO[C@@H](Cn2ccc(N)nc2=O)CO1)C(=O)OCCc1ccccc1 | HFF | WR | 15 µM |
| Nc1nc(N)c2ncn(CC(CO)OCP(=O)(O)O)c2n1 | Primary rabbit kidney cells | - | 2 µg/mL |
| CCCCCCCCCCCCCCCCOCCCOP1(=O)CO[C@@H](Cn2ccc(N)nc2=O)CO1 | HFF | Copenhagen | 3.8 µM |
| O=c1ccn([C@H]2C[C@H](O)[C@@H](CO)O2)c(=O)[nH]1 | E6SM | - | >2000 µM |
| Nc1ncnc2c1ccn2[C@@H]1O[C@H](CO)[C@@H](O)[C@H]1O | PRK | - | 0.07 µg/mL |
| Cc1cn([C@H]2C[C@H](O)[C@@H](CO)O2)c(=O)[nH]c1=O | E6SM | - | >2000 µM |
| CC(C)c1nc(CN(C)C(=O)N[C@H](C(=O)N[C@@H](Cc2ccccc2)C[C@H](O)[C@H](Cc2ccccc2)NC(=O)OCc2cncs2)C(C)C)cs1 | HFF | - | >300 µM |
| Cc1cc(O)cc(O)c1CC(=O)O | E6SM | - | 40 µg/mL |
| CCCCOC(=O)C(C)NP(=O)(COCCn1cnc2c(N)ncnc21)NC(C)C(=O)OCCCC | HFF | NYC | 5.1 µM |
| Nc1ccn(C[C@@H](CO)OCP(=O)(O)O)c(=O)n1 | VERO 76 | - | 37 µM |
| CCc1cn([C@H]2C[C@H](O)[C@@H](CO)O2)c(=O)[nH]c1=O | E6SM | - | 7.5 µM |
| O=c1ccn([C@@H]2O[C@@H](CO)[C@H](O)[C@H]2O)c(=O)[nH]1 | VERO B | - | >1000 µM |
| CCCCCCCCCCCCCCCCOCCCOP(=O)(O)CO[C@H](CO)Cn1ccc(N)nc1=O | HFF | IHD | 0.2 µM |
| O[C@@H]1[C@@H](OCc2ccccc2)[C@@H](COCc2ccccc2)O[C@H]1n1cnc2cc(Cl)c(Cl)cc21 | E6SM | - | >10 µg/mL |
| Nc1ncnc2c1ncn2C[C@@H](CO)OCP(=O)(O)O | Primary rabbit kidney cells | - | 0.7 µg/mL |